{"source": "PubChem BioAssay AID504761 (Drosophila RNAi Screening Center, 2011)", "screen": "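Insect host genes that dengue virus relies on to spread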 (primary screen)", "system": "D.Mel-2 cells from Drosophila", "knock-down reagent": "long dsRNA against Drosophila genes", "challenge": "infection with dengue virus type 2; dose and infection time not stated", "detection": "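Cells stained for dengue envelope protein and imaged; percent of infected cells per well on duplicate plates, ranked by infection, with stained nuclei counted for cell number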", "scale": "infection score: higher = more virus-infected cells; cell count: higher = more cells in the well", "active means": "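Very low infection ranking in both replicate wells (chance probability at most 0.065), then a retest showing infection dropped 1.5-fold or more at p below 0.05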", "meaning of the calls": "active = confirmed: knock-down lowers infection; inactive = not picked or not confirmed", "note": "The deposit covers about 22,000 reagents; this is a random part of those that have a named target and a result. Over the whole deposit, 116 (0.52%) got an active call. 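Calls depend on retest data that are not deposited; infection was ranked per plate without normalising between plates; the unit of the infection score is not given.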 The raw values are shown without normalisation. Not given: the amount of reagent, the time to read-out."}
{"gene": "CG14618", "amplicon": "DRSC20631", "infection score, replicate 2": 3.58, "cell count, replicate 1": 199, "cell count, replicate 2": 6063, "call": "inactive"}
{"gene": "eIF5B (eukaryotic translation initiation factor 5B)", "amplicon": "DRSC08429", "infection score, replicate 1": 2.31, "infection score, replicate 2": 5, "cell count, replicate 1": 6284, "cell count, replicate 2": 6015, "call": "inactive"}
{"gene": "eIF5B (eukaryotic translation initiation factor 5B)", "amplicon": "DRSC08710", "infection score, replicate 1": 0.69, "infection score, replicate 2": 4.52, "cell count, replicate 1": 6623, "cell count, replicate 2": 5668, "call": "inactive"}
{"gene": "eIF5B (eukaryotic translation initiation factor 5B)", "amplicon": "DRSC25022", "infection score, replicate 1": 7.41, "infection score, replicate 2": 0.86, "cell count, replicate 1": 5882, "cell count, replicate 2": 5574, "call": "inactive"}
{"gene": "Dlip3 (Dorsal interacting protein 3)", "amplicon": "DRSC07401", "infection score, replicate 2": 27.6, "cell count, replicate 1": 532, "cell count, replicate 2": 7028, "call": "inactive"}
{"gene": "Dlip3 (Dorsal interacting protein 3)", "amplicon": "DRSC29615", "infection score, replicate 1": 21.6, "cell count, replicate 1": 5651, "cell count, replicate 2": 367, "call": "inactive"}
{"gene": "mIF2 (mitochondrial translation initiation factor 2)", "amplicon": "DRSC14510", "infection score, replicate 1": 2.15, "infection score, replicate 2": 6.13, "cell count, replicate 1": 6453, "cell count, replicate 2": 6133, "call": "inactive"}
{"gene": "mIF2 (mitochondrial translation initiation factor 2)", "amplicon": "DRSC26368", "infection score, replicate 1": 14.4, "infection score, replicate 2": 11.5, "cell count, replicate 1": 4410, "cell count, replicate 2": 6228, "call": "inactive"}
{"gene": "GXIVsPLA2", "amplicon": "DRSC10243", "infection score, replicate 1": 8.67, "infection score, replicate 2": 6.21, "cell count, replicate 1": 5340, "cell count, replicate 2": 6404, "call": "inactive"}
{"gene": "GXIVsPLA2", "amplicon": "DRSC29361", "infection score, replicate 1": 18.6, "infection score, replicate 2": 17.4, "cell count, replicate 1": 4029, "cell count, replicate 2": 5944, "call": "inactive"}
{"gene": "CG12477", "amplicon": "DRSC09886", "infection score, replicate 1": 3.2, "infection score, replicate 2": 1.43, "cell count, replicate 1": 6720, "cell count, replicate 2": 6588, "call": "inactive"}
{"gene": "CG12477", "amplicon": "DRSC24078", "infection score, replicate 1": 9.77, "infection score, replicate 2": 14.8, "cell count, replicate 1": 4966, "cell count, replicate 2": 5885, "call": "inactive"}
{"gene": "yellow-g2", "amplicon": "DRSC08338", "infection score, replicate 1": 1.16, "infection score, replicate 2": 3.11, "cell count, replicate 1": 6110, "cell count, replicate 2": 6435, "call": "inactive"}
{"gene": "CG6966", "amplicon": "DRSC16156", "infection score, replicate 1": 13.9, "infection score, replicate 2": 32.6, "cell count, replicate 1": 4802, "cell count, replicate 2": 4763, "call": "inactive"}
{"gene": "CG6966", "amplicon": "DRSC24518", "infection score, replicate 1": 3.02, "infection score, replicate 2": 3.95, "cell count, replicate 1": 6913, "cell count, replicate 2": 6296, "call": "inactive"}
{"gene": "SMSr (Sphingomyelin synthase related)", "amplicon": "DRSC10998", "infection score, replicate 1": 6.13, "infection score, replicate 2": 7.11, "cell count, replicate 1": 6478, "cell count, replicate 2": 6058, "call": "inactive"}
{"gene": "SMSr (Sphingomyelin synthase related)", "amplicon": "DRSC10999", "infection score, replicate 1": 3.88, "infection score, replicate 2": 3.49, "cell count, replicate 1": 6107, "cell count, replicate 2": 5708, "call": "inactive"}
{"gene": "CG13010", "amplicon": "DRSC19529", "infection score, replicate 1": 3.33, "infection score, replicate 2": 2.66, "cell count, replicate 1": 6901, "cell count, replicate 2": 6885, "call": "inactive"}
{"gene": "CG13010", "amplicon": "DRSC27744", "infection score, replicate 1": 30.9, "infection score, replicate 2": 16.1, "cell count, replicate 1": 5779, "cell count, replicate 2": 6123, "call": "inactive"}
{"gene": "sff (sugar-free frosting)", "amplicon": "DRSC10590", "infection score, replicate 1": 5.38, "infection score, replicate 2": 8.45, "cell count, replicate 1": 6339, "cell count, replicate 2": 6068, "call": "inactive"}
{"gene": "yellow-g", "amplicon": "DRSC08575", "infection score, replicate 1": 3.06, "infection score, replicate 2": 0.62, "cell count, replicate 1": 6138, "cell count, replicate 2": 6740, "call": "inactive"}

Part of the list above, reformatted:
CG6966 [DRSC16156] | infection score, replicate 1 = 13.9; infection score, replicate 2 = 32.6; cell count, replicate 1 = 4802; cell count, replicate 2 = 4763; call = inactive
CG6966 [DRSC24518] | infection score, replicate 1 = 3.02; infection score, replicate 2 = 3.95; cell count, replicate 1 = 6913; cell count, replicate 2 = 6296; call = inactive
